Source: PMC3230330 (Bioorganic & medicinal chemistry, 2011)

Amino acid sequences for entries named in this document (tags omitted). Residues count along the entry.
UniProt P0DPI0, 2-448 limits assumed: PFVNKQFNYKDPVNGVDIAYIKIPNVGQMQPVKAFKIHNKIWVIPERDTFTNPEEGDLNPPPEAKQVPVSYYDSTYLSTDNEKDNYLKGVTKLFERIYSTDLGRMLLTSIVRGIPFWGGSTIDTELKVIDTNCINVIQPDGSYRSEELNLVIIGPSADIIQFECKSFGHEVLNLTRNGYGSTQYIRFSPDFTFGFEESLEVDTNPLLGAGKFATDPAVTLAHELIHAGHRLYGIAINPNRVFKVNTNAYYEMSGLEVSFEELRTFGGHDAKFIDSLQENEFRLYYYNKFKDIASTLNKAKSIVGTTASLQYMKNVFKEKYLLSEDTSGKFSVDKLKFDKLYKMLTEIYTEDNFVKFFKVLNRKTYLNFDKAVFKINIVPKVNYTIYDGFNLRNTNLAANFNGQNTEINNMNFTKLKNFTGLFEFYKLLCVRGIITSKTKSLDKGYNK
UniProt P15917, 34-809 limits assumed: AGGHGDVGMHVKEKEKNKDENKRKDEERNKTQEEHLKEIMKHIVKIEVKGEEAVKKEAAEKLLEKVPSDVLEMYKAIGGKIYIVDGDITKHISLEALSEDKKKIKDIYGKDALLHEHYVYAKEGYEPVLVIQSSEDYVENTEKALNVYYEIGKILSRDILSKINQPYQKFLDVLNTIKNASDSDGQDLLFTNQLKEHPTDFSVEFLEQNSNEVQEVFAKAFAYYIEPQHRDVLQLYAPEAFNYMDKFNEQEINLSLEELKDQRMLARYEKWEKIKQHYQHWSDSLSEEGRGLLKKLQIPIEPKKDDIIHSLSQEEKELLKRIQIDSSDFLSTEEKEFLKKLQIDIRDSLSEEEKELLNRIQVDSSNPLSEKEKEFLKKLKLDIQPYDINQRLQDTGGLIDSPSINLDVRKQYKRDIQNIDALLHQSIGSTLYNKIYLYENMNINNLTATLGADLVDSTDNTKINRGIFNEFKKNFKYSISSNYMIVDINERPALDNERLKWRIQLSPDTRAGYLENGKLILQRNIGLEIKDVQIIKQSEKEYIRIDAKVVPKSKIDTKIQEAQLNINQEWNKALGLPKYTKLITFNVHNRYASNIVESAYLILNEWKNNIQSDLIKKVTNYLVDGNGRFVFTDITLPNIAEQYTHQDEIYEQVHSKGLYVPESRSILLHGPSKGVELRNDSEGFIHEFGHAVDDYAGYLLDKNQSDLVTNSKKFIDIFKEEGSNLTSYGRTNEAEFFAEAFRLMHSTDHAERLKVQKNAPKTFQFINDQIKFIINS

How the values were obtained:
BoNT/A LC = BoNT/A LC (Clostridium botulinum, UniProt P0DPI0); conditions: cited from earlier work
Anthrax LF = Anthrax LF (Bacillus anthracis, UniProt P15917); format: biochemical; conditions: read-out: Anthrax LF IC50

Substance	activity in vivo (BoNT/A LC)	IC50 (Anthrax LF)
2,4-dichlorocinnamic hydroxamic acid	very minimal activity	–
2-(1-Cyano-2-phenylvinyl)benzimidazole [Compound 8a]	–	> 100 µM
